Results of unrelated studies side by side (data: NIAID ChemDB).

All rows: target-level tests

An empty or dashed field is not shown. ICn: concentration for n% inhibition. Conditions beyond the fields shown may differ between rows. Percent inhibition refers to the dose given; in toxicity tests it is the harm to the cells. Fold resistance has wild type as its base. a–b is a range or a potency band.

structure	protein	method	strain or isolate	changes	measure	dose	species	value
CC(NC(=O)COC(C)(C)C#Cc1ccc(NC(=O)CSc2nnnn2-c2ccc(C(C)(C)C)cc2Cl)c(Cl)c1)C(=O)O	Reverse transcriptase	PicoGreen / fluorescence	WT		IC50		HIV-1	<1 µM
O=S(=O)(O)c1ccc(-c2c3nc(c(-c4ccc(S(=O)(=O)O)cc4)c4ccc([nH]4)c(-c4ccc(S(=O)(=O)O)cc4)c4nc(c(-c5ccc(S(=O)(=O)O)cc5)c5ccc2[nH]5)C=C4)C=C3)cc1	gp120				inhibition	60 µg/mL	HIV-1	37.7%
CC1(C)c2nc(C(=O)NCc3ccc(F)cc3)c(O)c(=O)n2CCN1Cc1cocn1	Integrase	ELISA			IC50		HIV-1	<10 µM
CC(C)(C#Cc1ccc(NC(=O)CSc2nnnn2-c2ccc(C3CC3)cc2Cl)c(Cl)c1)NC(=O)CNc1ccncc1	Reverse transcriptase	PicoGreen / fluorescence		RT-K103 Y181C	IC50		HIV-1	<1 µM
O=C(O)CCC1=C(CC(=O)O)c2cc3nc(cc4[nH]c(cc5[nH]c(cc1n2)c(CC(=O)O)c5CCC(=O)O)c(CC(=O)O)c4CCC(=O)O)C(CC(=O)O)=C3CCC(=O)O	gp120				IC50		HIV-1	>60 µg/mL
CC(C)(N)C#Cc1ccc(NC(=O)CSc2nnnn2-c2cc(C(C)(C)C)cc(Br)c2Cl)c(Cl)c1	Reverse transcriptase	PicoGreen / fluorescence	WT		IC50		HIV-1	<1 µM
CC1=C(CCC(=O)O)c2cc3[nH]c(cc4[nH]c(cc5nc(cc1n2)C(CCC(=O)O)=C5CC(=O)O)c(CCC(=O)O)c4CC(=O)O)c(CCC(=O)O)c3CC(=O)O	gp120				inhibition	60 µg/mL	HIV-1	21%
Cc1cc(CNC(=O)c2nc3n(c(=O)c2O)CCNCC3N(C)C(=O)C(=O)N(C)C)ccc1F	Integrase	ELISA			IC50		HIV-1	<10 µM
Cn1cc2c(c(O)c1=O)C(=O)N(Cc1c(F)cccc1Cl)CC2	Integrase	ELISA			IC50		HIV-1	<0.01 µM
CC(C)(C)c1ccc(-n2nnnc2SCC(=O)Nc2ccc(OCC(=O)NC(CO)C(=O)O)cc2Cl)c(Cl)c1	Reverse transcriptase	PicoGreen / fluorescence		RT-K103 Y181C	IC50		HIV-1	<1 µM
CCCCCCC[C@@H]1O[C@@H]1CO	Protease	HPLC			inhibition	500 µg/mL	HIV-2	58%
CC(=O)N1Cn2c(nc(C(=O)NCc3ccc(F)cc3)c(O)c2=O)C1(C)C	Integrase	ELISA			IC50		HIV-1	<10 µM
COc1ccnc2[nH]cc(C(=O)C(=O)N3CCN(C(=O)c4ccccc4)C[C@H]3C)c12	gp120	ELISA	LAI	GP120-S440R	fold resistance		HIV-1	2
CN1CCn2c(nc(C(=O)NCc3ccc(F)cc3)c(O)c2=O)C(N(Cc2ccccc2)C(=O)C(=O)N(C)C)C1	Integrase	ELISA			IC50		HIV-1	<10 µM
CC(C)c1cn(Cc2cccc(Cl)c2)c(=O)c2c(O)c(=O)ccn12	Integrase	ELISA			IC50		HIV-1	0.01–0.1 µM
Cc1ccc(-n2nnnc2SCC(=O)Nc2ccc(/C=C/C(=O)O)cc2Cl)c(Cl)c1	Reverse transcriptase	PicoGreen / fluorescence	WT		IC50		HIV-1	<1 µM
C=CC1=C(C)C2=NC1=CC1=NC(=CC3=C(C)C(=C([O-])[O-])C(=N3)C(CC(=O)O)=C3NC(=C2)C(C)C3CCC(=O)O)C(CC)=C1C.[Mg+2]	gp120				inhibition	60 µg/mL	HIV-1	73.7%
O=c1c(-c2ccncn2)cn2ccn(Cc3cccc(Cl)c3F)c(=O)c2c1O	Integrase	ELISA			IC50		HIV-1	<0.01 µM
COc1ccccc1CC(=O)Nc1ccc(NC(=O)CSc2nnnn2-c2ccc(C(C)(C)C)cc2Cl)c(Cl)c1	Reverse transcriptase	PicoGreen / fluorescence		RT-K103 Y181C	IC50		HIV-1	<1 µM
CN1CCn2c(nc(C(=O)NCc3ccc(F)cc3)c(O)c2=O)C(NC(=O)C(=O)N(C)C)C1	Integrase	ELISA			IC50		HIV-1	<10 µM
CCCCCCC[C@H]1O[C@H]1CO	Protease	HPLC			IC50		HIV-2	>500 µg/mL
CC(C)(C)c1ccc(-n2nnnc2SCC(=O)Nc2ccc(-c3ncc[nH]3)cc2Cl)c(Cl)c1	Reverse transcriptase	PicoGreen / fluorescence	WT		IC50		HIV-1	<1 µM
CC1=C(CCC(=O)O)c2cc3nc(cc4[nH]c(cc5[nH]c(cc1n2)c(C)c5C(O)CO)c(C)c4C(O)CO)C(C)=C3CCC(=O)O	gp120				inhibition	60 µg/mL	HIV-1	43.3%
O=C(c1cn2ccn(Cc3cccc(Cl)c3)c(=O)c2c(O)c1=O)N1CCCC1	Integrase	ELISA			IC50		HIV-1	0.01–0.1 µM
CC(C)(C)c1ccc(-n2nnnc2SCC(=O)Nc2ccc(C(=O)Nc3ccc(/C=C/C(=O)O)cc3)cc2Cl)c(Cl)c1	Reverse transcriptase	PicoGreen / fluorescence		RT-K103 Y181C	IC50		HIV-1	<1 µM

Repeating the final 3 entries:

structure | protein | method | strain or isolate | changes | measure | dose | species | value
CC1=C(CCC(=O)O)c2cc3nc(cc4[nH]c(cc5[nH]c(cc1n2)c(C)c5C(O)CO)c(C)c4C(O)CO)C(C)=C3CCC(=O)O | gp120 |  |  |  | inhibition | 60 µg/mL | HIV-1 | 43.3%
O=C(c1cn2ccn(Cc3cccc(Cl)c3)c(=O)c2c(O)c1=O)N1CCCC1 | Integrase | ELISA |  |  | IC50 |  | HIV-1 | 0.01–0.1 µM
CC(C)(C)c1ccc(-n2nnnc2SCC(=O)Nc2ccc(C(=O)Nc3ccc(/C=C/C(=O)O)cc3)cc2Cl)c(Cl)c1 | Reverse transcriptase | PicoGreen / fluorescence |  | RT-K103 Y181C | IC50 |  | HIV-1 | <1 µM